Paper PMC3006207, “Phosphorylation-Dependent Protein Interaction with Trypanosoma brucei 14-3-3 Proteins that Display Atypical Target Recognition” (PLoS ONE, 2010)

B1: synthetic phosphopeptide MGGGLTRSRpSL derived from PP2c-W (peptide)
peptide: MGGGLTRSRSL
modifications: biotinylated; phosphoserine (residue 10 of the peptide, S744 of PP2c)
notes: source: synthetic peptide (bought: Scrum, Japan)
B2: synthetic phosphopeptide MGGGHVSGLKRRRpSV derived from p31-SAP (peptide)
peptide: MGGGHVSGLKRRRSV
modifications: biotinylated; phosphoserine (residue 14 of the peptide, S286 of p31-SAP)
notes: as for B1

Target: T1, GST-14-3-3ζ (human 14-3-3ζ) (human, UniProt P63104 1-245)
T1 construct: human 14-3-3 zeta
T1 sequence (looked up): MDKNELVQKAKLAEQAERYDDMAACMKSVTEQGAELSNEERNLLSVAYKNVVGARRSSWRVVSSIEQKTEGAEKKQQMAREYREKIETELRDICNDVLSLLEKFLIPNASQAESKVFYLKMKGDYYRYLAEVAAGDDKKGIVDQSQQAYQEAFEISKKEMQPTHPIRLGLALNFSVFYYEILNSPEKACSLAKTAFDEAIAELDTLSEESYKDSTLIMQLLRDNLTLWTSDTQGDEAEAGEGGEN
Experiment: far-Western, overlay or dot blot
Details: both partners purified

| Binder | binding result |
| --- | --- |
| B1 | binds |
| B2 | binds |
